One may read the EC50 as the concentration giving half of the maximal effect. As usually defined, the Kd is the concentration at which binding is half-saturated. A lower Kd goes with a tighter complex.

Changes are numbered by the printed parent chain. Numbers in names are those of the source. Like-named read-outs stand apart in the source and are kept apart here.

Experiment [1] deals with T1, HA of A/Texas/50/2012 (H3N2) (influenza A virus (H3N2)).
T1 construct: extracellular domain
In words: ELISA. (An ELISA detects its analyte on a solid surface through an enzyme-linked reagent.)

Experiment [2] concerns the target T2, HA of A/Hong Kong/1073/99 (H9) (influenza A virus (H9)). Kind of experiment: ELISA.
In experiment [3] the target is T3, HA of A/mallard duck/Astrakhan/263/1982 (H14N5) (influenza A virus (H14N5)). In words: ELISA.
Experiment [4] deals with T4, HA of A/shearwater/Western Australia/2576/1979 (H15N9) (influenza A virus (H15N9)). Kind of experiment: ELISA.
The target of experiment [5] is T5, HA of A/Victoria/361/2011 (H3N2) (influenza A virus (H3N2)).
T5 construct: extracellular domain
In words: BLI, Fab on immobilized biotinylated HA.

Experiment [6] addresses T6, HA of A/Indonesia/5/2005 (H5N1) (influenza A virus (H5N1)). Kind of experiment: BLI, Fab on immobilized biotinylated HA. On the technique in general: BLI is a label-free optical method that tracks binding on a fibre tip over time.
Experiment [7] concerns the target T7, HA of A/Vietnam/1203/2004 (H5N1) (influenza A virus (H5N1)). In words: BLI, Fab on immobilized biotinylated HA.
Experiment [8] has as its target T8, HA of A/duck/Alberta/60/1976 (H12N5) (influenza A virus (H12N5), UniProt P03446 17-530). Kind of experiment: ELISA.
The target of experiment [9] is T7, HA of A/Vietnam/1203/2004 (H5N1). In words: Octet (BLI) with HA.
Experiment [10] has as its target T9, HA of A/Netherlands/219/2003 (H7N7) (influenza A virus (H7N7)). In words: Octet (BLI) with HA.
Experiment [11] concerns the target T8, HA of A/duck/Alberta/60/1976 (H12N5). In words: Octet (BLI) with HA.
Experiment [12] addresses T3, HA of A/mallard duck/Astrakhan/263/1982 …. In words: Octet (BLI) with HA.
Experiment [13] addresses T10, HA of A/chicken/Germany/N/1948 (H10N7) (influenza A virus (H10N7)). In words: Octet (BLI) with HA.
Experiment [14] has as its target T6, HA of A/Indonesia/5/2005 (H5N1). Kind of experiment: ELISA (highest dilution tested 1/50,000).
Experiment [15] addresses T7, HA of A/Vietnam/1203/2004 (H5N1). Kind of experiment: ELISA (highest dilution tested 1/50,000).
The target in experiment [16] is T11, HA of A/Fort Monthouth/1947 (H1N1) (influenza A virus (H1N1)). In words: ELISA (highest dilution tested 1/50,000).
The target of experiment [17] is T12, HA of A/Taiwan/2/2013 (H6) (Influenza A virus A/Taiwan/2/2013 (H6)). Kind of experiment: ELISA, recombinant HA.
The target in experiment [18] is T13, HA of A/Solomon Islands/03/2006 (H1N1) (influenza A virus (H1N1)).
T13 construct: extracellular domain
Kind of experiment: ELISA, recombinant HA.

For experiment [19], the target named is T14, HA of A/Texas/36/1991 (H1N1) (influenza A virus (H1N1)).
T14 construct: extracellular domain
In words: ELISA, recombinant HA.

Experiment [20] has as its target T1, HA of A/Texas/50/2012 (H3N2). Kind of experiment: ELISA, recombinant HA.
The target in experiment [21] is T15, HA of A/Switzerland/9715293/2013 (H3) (influenza A virus (H3)).
T15 construct: extracellular domain
Kind of experiment: ELISA, recombinant HA.

Experiment [22] deals with T9, HA of A/Netherlands/219/2003 (H7N7). In words: ELISA, recombinant HA.
Experiment [23] deals with HA of A/Shanghai/2/2013 (H7N9) (influenza A virus (H7N9)). In words: ELISA, recombinant HA.
Experiment [24] has as its target T2, HA of A/Hong Kong/1073/99 (H9). In words: ELISA, recombinant HA.
Experiment [25] has as its target T8, HA of A/duck/Alberta/60/1976 (H12N5). In words: ELISA, recombinant HA.
For experiment [26], the target named is T3, HA of A/mallard duck/Astrakhan/263/1982 …. Kind of experiment: ELISA, recombinant HA.
Experiment [27] concerns the target T4, HA of A/shearwater/Western …. In words: ELISA, recombinant HA.
Experiment [28] concerns the target T11, HA of A/Fort Monthouth/1947 (H1N1). In words: ELISA, recombinant HA.
Experiment [29] addresses T10, HA of A/chicken/Germany/N/1948 (H10N7). Kind of experiment: ELISA, recombinant HA.
Experiment [30] has as its target T12, HA of A/Taiwan/2/2013 (H6). Kind of experiment: ELISA, recombinant HA. The source holds these as a separate data set.
Experiment [31] addresses T13, HA of A/Solomon Islands/03/2006 (H1N1). In words: ELISA, recombinant HA. The source holds these as a separate data set.
For experiment [32], the target named is T14, HA of A/Texas/36/1991 (H1N1). In words: ELISA, recombinant HA. This is another data set of the same source.
The target of experiment [33] is T9, HA of A/Netherlands/219/2003 (H7N7). In words: ELISA, recombinant HA. This is another data set of the same source.
Experiment [34] concerns the target T2, HA of A/Hong Kong/1073/99 (H9). In words: ELISA, recombinant HA. The source holds these as a separate data set.
The target in experiment [35] is T11, HA of A/Fort Monthouth/1947 (H1N1). In words: ELISA, recombinant HA. The source holds these as a separate data set.

B1: rFluA-20 (recombinant FluA-20 IgG) (antibody, V domains shown)
VH: QVQLQESGPGLVKPSETLSLTCSVSGVSVTSDIYYWTWIRQPPGKGLEWIGYIFYNGDTNYNPSLKSRVTMSIDTSKNEFSLRLTSVTAADTAVYFCARGTEDLGYCSSGSCPNHWGQGTLVTVSS
VL: DIQMTQSPSSLSASIGDRVTITCRPSQNIRSFLNWFQHKPGKAPKLLIYAASNLQSGVPSRFSGSGSGTEFTLTIRSLQPEDFATYYCQQSYNTPPTFGQGTKVEIK
With B1, the EC50 in experiment [1], in [2], in [3] and in experiment [4] was 0.007 µg/mL in each case.

B2: FluA-20 Fab (Fab, V domains shown)
VH: B1 VH
VL: B1 VL
For the molecule B2, the Kd in experiment [5] stood at 15 nM; in experiment [6], 88 nM; in experiment [7] it was 122 nM.

B3: rFluA-20 heavy chain mutant Y34A (antibody, V domains shown)
VH: B1 VH with Y34A
VL: B1 VL
Take B3: the EC50 in experiment [8] was determined as 0.05 µg/mL.

B4: rFluA-20 heavy chain mutant D98A (antibody, V domains shown)
VH: B1 VH with D103A
VL: B1 VL
As for B4, in experiment [8], the binding result is listed as “no binding (tested: 10 µg/mL)”.

B5: rFluA-20 light chain mutant Q55A (antibody, V domains shown)
VH: B1 VH
VL: B1 VL with Q55A
notes: recombinant IgG
For B5, in [8], the “EC50 fold over wild-type rFluA-20” value was over 100 fold.

B6: rFluA-20 heavy chain mutant T96A (antibody, V domains shown)
VH: B1 VH with T101A
VL: B1 VL
For B6, the EC50 in experiment [8] is 0.04 µg/mL.

B7: rFluA-20 light chain mutant N53A (antibody, V domains shown)
VH: B1 VH
VL: B1 VL with N53A
notes: recombinant IgG
In experiment [8], B7 yielded an EC50 of 0.03 µg/mL.

B8: rFluA-20 heavy chain mutant Y100aA (antibody, V domains shown)
VH: B1 VH with Y106A
VL: B1 VL
Take B8: the “EC50 fold over wild-type rFluA-20” value in [8] is over 100 fold.

B9: rFluA-20 heavy chain mutant E97A (antibody, V domains shown)
VH: B1 VH with E102A
VL: B1 VL
B9 yielded a half-maximal effective concentration (EC50) in experiment [8] of 0.06 µg/mL.

B10: rFluA-20 light chain mutant Y49A (antibody, V domains shown)
VH: B1 VH
VL: B1 VL with Y49A
notes: recombinant IgG
Consider B10, for which the binding result in experiment [8] is recorded as “no binding (tested: 10 µg/mL)”.

B11: H5.31 (antibody, V domains shown)
VH: EVQLVQSGGGLVQPGGSLRLSCEASRFTSSSYWITWVRQAPGKGLEWVANIKQDGSEKYFVDSVKGRFTISRDNASNSLYLQMSSLRAEDTAVYYCARGFLERLLLGRQGAYYYGMDVWGQGTTVTVSS
VL: DIQMTQSPSSLSASVGDRVTMTCRASQSISSSLNWYQQKPGKAPKLLIYAASNLQSGVPSRFSGSGSGTDFTLTISSLQPEDFATYYCQQSYTMPPELTFGGGTKVQIK
With B11, the Kd in experiment [9] amounted to 3.8 nM; in experiment [10], 83 nM; in [11], 13 nM; in [12], 2500 nM; in experiment [13] it was 14 nM. Besides, the EC50 in experiment [14] was 27 µg/mL; in experiment [15], 0.006 µg/mL; in experiment [16], 0.012 µg/mL.

B12: H5.28 (antibody, V domains shown)
VH: EVQLVESGGGLVQPGGSLRLSCAASGFTFSTYWMTWVRQAPGKGLEWVANINQDGGEKYFVDSVKGRFTISRDNAKNSLFLQMNTLRAEDTAVYYCARGFLERLLLGRQGAYYYGMDVWGQGTTVTVSS
VL: B11 VL with T20S, S28I, T93S, M94T, Q107E
Consider B12, for which the results for the Kd in experiment [11] and in experiment [13] were 71 nM and 85 nM, respectively. In addition, the EC50 in experiment [14] worked out at 21 µg/mL; in experiment [15] it was 0.366 µg/mL; in experiment [16], 0.044 µg/mL.

B13: UCA (antibody, V domains shown)
VH: QVQLQESGPGLVKPSETLSLTCTVSGGSVSSGSYYWSWIRQPPGKGLEWIGYIYYSGSTNYNPSLKSRVTISVDTSKNQFSLKLSSVTAADTAVYYCARGTEDLGYCSGGSCPNHWGQGTLVTV
VL: not shown
For the molecule B13, the EC50 in [17] came out at 0.831 µg/mL; in experiment [18], 0.036 µg/mL; in [19] it was 0.048 µg/mL; in experiment [20], 1.3 µg/mL; in [21], 2.37 µg/mL; in experiment [22] it was 0.083 µg/mL. The EC50 was determined as 0.15 µg/mL in [23]; 0.342 µg/mL in experiment [24]; 0.067 µg/mL in [25]; 0.132 µg/mL in [26]; 0.073 µg/mL in experiment [27]; 0.039 µg/mL in experiment [28]. Moreover, the EC50 was 0.361 µg/mL in experiment [29]; 0.342 µg/mL in experiment [30]; 0.01 µg/mL in experiment [31]; 0.015 µg/mL in [32]; 0.033 µg/mL in experiment [33]; 0.052 µg/mL in experiment [34]. Besides, the EC50 in experiment [35] came out at 0.017 µg/mL.

(Values after patent US20210252150A1 (VANDERBILT UNIVERSITY, published 2021).)
